Pooled drug test results. Numbers come from NIAID ChemDB, via PubChem.

All rows: growth or infection tests; organism: HIV-1; endpoint: EC50

Neighbouring rows are from separate reports. An empty or dashed field is not shown. ECn: concentration that inhibits the pathogen or its effect by n%.

structure,read by,strain,cell line,changes,result
Nc1nccc2c1ncn2[C@@H]1O[C@H](CO)[C@@H](O)[C@H]1O,p24,A012 POST-AZT,PBMC,-,0.11 µM
CC(C)C1=C2[C@H]3CC[C@@H]4[C@@]5(C)CC[C@H](OC(=O)[C@H]6C[C@@H](C(=O)O)C6(C)C)C(C)(C)[C@@H]5CC[C@@]4(C)[C@]3(C)CC[C@@]2([C@@H](O)CNC(=O)C(C)(C)NC(=O)c2ccc(Cl)cc2OCCN(C)C)CC1=O,p24 / ELISA,92HT599,MT-2,-,<1 µM
Cc1ccc(C(C)C)c2oc(=O)c(C(=O)/C=C/c3ccccc3)c(O)c12,virus yield,IIIB,MT-4,-,>12.75 µg/mL
O=[N+]([O-])c1ccccc1C1SCc2nc3ccccc3n21,cytopathic effect / MTT,RF,CEM,-,17.2 µM
CCOC(=O)CCCCn1c(Cc2ccccc2)c(C(C)C)c(=O)[nH]c1=O,cytopathic effect / MTT,IIIB,MT-4,-,38 µM
Cc1cc(=O)oc2c3c(ccc12)O[C@H](C)[C@H](OC(=O)[C@@]12CC[C@@](C)(C(=O)O1)C2(C)C)[C@@H]3OC(=O)[C@@]12CC[C@@](C)(C(=O)O1)C2(C)C,p24 / antigen,IIIB,H9,-,>100 µg/mL
Cc1ccc(C(C)C)c2oc(=O)c(C(=O)/C=C/c3ccccc3[N+](=O)[O-])c(O)c12,virus yield,IIIB,MT-4,-,>3.06 µg/mL
CCCCCCCCCC[N+](C)(C)CCCNCc1c(O)cc2c(c1O)-c1cc(ccc1O)[C@H]1NC(=O)[C@@H]3NC(=O)C4NC(=O)[C@@H](Cc5ccc(c(Cl)c5)Oc5cc3cc(c5O)Oc3ccc(cc3Cl)[C@@H](O)[C@H](NC1=O)C(=O)N[C@@H]2C(=O)O)NC(=O)[C@H](N)c1ccc(O)c(c1)Oc1cc(O)cc4c1,syncytia,RT-K188H,CEM,RT-Y188H,6 µM
[N-]=[N+]=N[C@H]1C[C@H](n2cc(I)cnc2=O)O[C@@H]1CO,-,-,CEM-V + CEM,-,>28 µM
COc1ccc(/C=C/C(=O)c2c(O)c3cc(Cl)c(C)cc3oc2=O)cc1,virus yield,IIIB,MT-4,-,>33.8 µg/mL
Cc1cn(-c2ccc(C(=O)NC(C)(C)CNCC[C@@]34CC[C@]5(C)[C@H](CC[C@@H]6[C@@]7(C)CC[C@H](OC(=O)[C@H]8C[C@@H](C(=O)O)C8(C)C)C(C)(C)[C@@H]7CC[C@]65C)C3=C(C(C)C)C(=O)C4)cc2)cn1,p24 / ELISA,92HT599,MT-2,-,<1 µM
C=C1[C@H](CO)[C@@H](O)C[C@@H]1n1cnc2c(=O)[nH]c(N)nc21,cytopathic effect / XTT,-,MT-2,-,9 µM
CC(C)C1=C2[C@H]3CC[C@@H]4[C@@]5(C)CC[C@H](OC(=O)[C@H]6C[C@@H](C(=O)O)C6(C)C)C(C)(C)[C@@H]5CC[C@@]4(C)[C@]3(C)CC[C@@]2([C@@H](O)CNC(=O)C(C)(C)NC(=O)c2ccc(N3CCOCC3)cc2)CC1=O,p24 / ELISA,92HT599,MT-2,-,<1 µM
Cc1cc2oc(=O)c(C(=O)/C=C/c3cccc(Oc4ccccc4)c3)c(O)c2cc1Cl,virus yield,IIIB,MT-4,-,>51.6 µg/mL
CCOCn1c(Cc2ccccc2)c(C(C)C)c(=O)[nH]c1=O,cytopathic effect / MTT,IIIB,MT-4,-,0.018 µM
Nc1nccc2c1ncn2[C@@H]1C=C(CO)[C@@H](O)[C@H]1O,RT activity,MN,H9,-,0.001 µM
[2H]C(CNC(=O)C[C@@]12CC[C@]3(C)[C@H](CC[C@@H]4[C@@]5(C)CC[C@H](OC(=O)[C@H]6C[C@@H](C(=O)O)C6(C)C)C(C)(C)[C@@H]5CC[C@]43C)C1=C(C(C)C)C(=O)C2)NC(=O)c1ccc(Cl)cc1,p24 / ELISA,92HT599,MT-2,-,<1 µM
CNC(=O)[C@@H](NC(=O)[C@@](O)(CCCN(Cc1ccc(-c2ccccn2)cc1)NC(=O)[C@@H](NC(=O)OC)C(C)(C)C)Cc1ccccc1)C(C)(C)C,-,-,-,-,1.9 µM
Cc1cc2oc(=O)c(C(=O)/C=C/c3ccc(O)cc3)c(O)c2cc1Cl,virus yield,IIIB,MT-4,-,>2 µg/mL
O=S(=O)(O)c1cc(S(=O)(=O)O)c2cc(NS(=O)(=O)c3ccc(-c4ccc(S(=O)(=O)Nc5ccc6cc(S(=O)(=O)O)cc(S(=O)(=O)O)c6c5)cc4)cc3)ccc2c1,cytopathic effect / MTT,IIIB,MT-4,-,>47 µM
CC(C)c1c(Cc2ccccc2)n(CCCCCC(N)=O)c(=O)[nH]c1=O,cytopathic effect / MTT,IIIB,MT-4,-,1.8 µM
Cc1ccc(C(C)C)c2oc(=O)c(C(=O)/C=C/c3cccc(Oc4ccccc4)c3)c(O)c12,virus yield,IIIB,MT-4,-,>3.49 µg/mL
CC(C)c1c(Cc2ccccc2)n(CC(N)=O)c(=O)[nH]c1=O,cytopathic effect / MTT,IIIB,MT-4,-,10 µM
Cc1cc(CNC(=O)C[C@@]23CC[C@]4(C)[C@H](CC[C@@H]5[C@@]6(C)CC[C@H](OC(=O)[C@H]7C[C@@H](C(=O)O)C7(C)C)C(C)(C)[C@@H]6CC[C@]54C)C2=C(C(C)C)C(=O)C3)c(C)o1,p24 / ELISA,92HT599,MT-2,-,<1 µM
CC(C)c1c(Cc2ccccc2)n(CCCC(N)=O)c(=O)[nH]c1=O,cytopathic effect / MTT,IIIB,MT-4,-,2.2 µM
O=C(/C=C/c1ccc(O)c(O)c1)O[C@H]1[C@H](O)[C@@H](O)[C@H](Oc2cc(O)c3c(=O)cc(-c4ccc(O)cc4)oc3c2)O[C@@H]1C(=O)O,cytopathic effect,IIIB,MT-4,-,41.86 µg/mL
Cc1ccc(C(C)C)c2oc(=O)c(C(=O)/C=C/c3ccc(O)cc3)c(O)c12,virus yield,IIIB,MT-4,-,>3.73 µg/mL
CC(C)C1=C2[C@H]3CC[C@@H]4[C@@]5(C)CC[C@H](OC(=O)[C@H]6C[C@@H](C(=O)O)C6(C)C)C(C)(C)[C@@H]5CC[C@@]4(C)[C@]3(C)CC[C@@]2(CC(=O)NCC(C)(C)NC(=O)CN2CCCCC2)CC1=O,p24 / ELISA,92HT599,MT-2,-,<1 µM
Cc1cc2oc(=O)c(C(=O)/C=C/c3ccccc3[N+](=O)[O-])c(O)c2cc1Cl,virus yield,IIIB,MT-4,-,>6.94 µg/mL
COC(=O)C(C)NP(=O)(OC[C@@H]1C=C[C@H](n2cc(Cl)c(=O)[nH]c2=O)O1)Oc1ccccc1,syncytia,IIIB,CEM + CEM/0,-,0.65 µM
COc1cc(/C=C/C(=O)c2c(O)c3cc(Cl)c(C)cc3oc2=O)ccc1O,virus yield,IIIB,MT-4,-,>9.87 µg/mL
Cc1cn([C@H]2C=C[C@@H](CO)O2)c(=O)[nH]c1=O,cytopathic effect / MTT,RD 05-RT-41L D215Y K65R Recombinant,MT-4,-,0.22 µM

The last 5 rows once more:

structure,read by,strain,cell line,changes,result
CC(C)C1=C2[C@H]3CC[C@@H]4[C@@]5(C)CC[C@H](OC(=O)[C@H]6C[C@@H](C(=O)O)C6(C)C)C(C)(C)[C@@H]5CC[C@@]4(C)[C@]3(C)CC[C@@]2(CC(=O)NCC(C)(C)NC(=O)CN2CCCCC2)CC1=O,p24 / ELISA,92HT599,MT-2,-,<1 µM
Cc1cc2oc(=O)c(C(=O)/C=C/c3ccccc3[N+](=O)[O-])c(O)c2cc1Cl,virus yield,IIIB,MT-4,-,>6.94 µg/mL
COC(=O)C(C)NP(=O)(OC[C@@H]1C=C[C@H](n2cc(Cl)c(=O)[nH]c2=O)O1)Oc1ccccc1,syncytia,IIIB,CEM + CEM/0,-,0.65 µM
COc1cc(/C=C/C(=O)c2c(O)c3cc(Cl)c(C)cc3oc2=O)ccc1O,virus yield,IIIB,MT-4,-,>9.87 µg/mL
Cc1cn([C@H]2C=C[C@@H](CO)O2)c(=O)[nH]c1=O,cytopathic effect / MTT,RD 05-RT-41L D215Y K65R Recombinant,MT-4,-,0.22 µM